Measured values published in publication PMC5652740, “Inhibition of HIV-1 infection in humanized mice and metabolic stability of protein phosphatase-1-targeting small molecule 1E7-03” (Oncotarget, 2017).

Protein sequences, listed by entry. Tags and fused reporters are not part of them. Residues count along the entry.
UniProt P62136, 7-300: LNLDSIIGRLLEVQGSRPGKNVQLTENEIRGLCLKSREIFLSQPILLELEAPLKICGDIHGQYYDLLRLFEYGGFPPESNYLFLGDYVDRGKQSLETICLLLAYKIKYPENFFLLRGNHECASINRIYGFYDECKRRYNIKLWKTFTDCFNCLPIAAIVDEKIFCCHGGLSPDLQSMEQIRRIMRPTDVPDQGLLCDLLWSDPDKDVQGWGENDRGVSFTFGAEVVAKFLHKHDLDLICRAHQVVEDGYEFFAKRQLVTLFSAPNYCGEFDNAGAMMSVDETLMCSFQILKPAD

Target: T1, human PP1α (residues 7–300) (human, UniProt P62136 7-300)
T1 construct: also called protein phosphatase-1; recombinant PP1; source: E. coli BL21 (DE3), co-expressed with GroEL/GroES chaperones, purified (Ni-NTA IMAC)
Test: SPR; PP1 immobilised on a CM5 chip by amine coupling (about 3160 RU); Biacore T200, 25°C; running buffer 0.01 M HEPES pH 7.4, 0.15 M NaCl, 0.005% Surfactant P20, 1% DMSO, 2 mM MnCl2; 1:1 binding model
Details: both partners purified

B1: pRb-Tat hybrid peptide (retinoblastoma protein-derived phosphopeptide linked to an RVxF-containing sequence derived from HIV-1 Tat) (peptide)
peptide: HIPRSPYKFPSSPLRKKCCFHCQVCFITK
modifications: phosphoserine at position 5 of the peptide, HIPR(pS)PYK (a single serine phosphorylated)
notes: retinoblastoma protein (pRb) part of the hybrid peptide; HIV-1 Tat part of the hybrid peptide with the RVxF-like motif QVCF; also called pRb-Tat peptide
Kd: 160 nM
